Measured values: article PMC7191901, “Hybrid inhibitors of DNA and HDACs remarkably enhance cytotoxicity in leukaemia cells” (Journal of Enzyme Inhibition and Medicinal Chemistry, 2020)
Read-outs that look alike come from different tables or passages of the source.

By UniProt entry, the sequences of proteins in these tests, tags left out. Where a name states a change or a piece, a line headed by the entry shows the natural chain unless it says otherwise.
UniProt Q13547, whole entry, looked up: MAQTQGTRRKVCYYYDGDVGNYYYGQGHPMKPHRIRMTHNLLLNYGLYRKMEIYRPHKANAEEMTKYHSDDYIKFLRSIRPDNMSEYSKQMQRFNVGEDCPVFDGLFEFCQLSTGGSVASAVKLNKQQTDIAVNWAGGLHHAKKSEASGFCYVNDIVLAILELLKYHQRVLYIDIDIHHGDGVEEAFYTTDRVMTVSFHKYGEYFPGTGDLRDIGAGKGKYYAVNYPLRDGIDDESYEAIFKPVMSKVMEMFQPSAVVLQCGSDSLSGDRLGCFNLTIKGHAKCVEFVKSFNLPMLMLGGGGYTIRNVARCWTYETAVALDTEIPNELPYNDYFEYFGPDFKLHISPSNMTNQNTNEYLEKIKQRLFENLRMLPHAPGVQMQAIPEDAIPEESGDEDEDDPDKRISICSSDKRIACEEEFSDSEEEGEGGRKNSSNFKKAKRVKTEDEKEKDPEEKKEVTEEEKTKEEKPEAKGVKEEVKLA
UniProt Q9UBN7: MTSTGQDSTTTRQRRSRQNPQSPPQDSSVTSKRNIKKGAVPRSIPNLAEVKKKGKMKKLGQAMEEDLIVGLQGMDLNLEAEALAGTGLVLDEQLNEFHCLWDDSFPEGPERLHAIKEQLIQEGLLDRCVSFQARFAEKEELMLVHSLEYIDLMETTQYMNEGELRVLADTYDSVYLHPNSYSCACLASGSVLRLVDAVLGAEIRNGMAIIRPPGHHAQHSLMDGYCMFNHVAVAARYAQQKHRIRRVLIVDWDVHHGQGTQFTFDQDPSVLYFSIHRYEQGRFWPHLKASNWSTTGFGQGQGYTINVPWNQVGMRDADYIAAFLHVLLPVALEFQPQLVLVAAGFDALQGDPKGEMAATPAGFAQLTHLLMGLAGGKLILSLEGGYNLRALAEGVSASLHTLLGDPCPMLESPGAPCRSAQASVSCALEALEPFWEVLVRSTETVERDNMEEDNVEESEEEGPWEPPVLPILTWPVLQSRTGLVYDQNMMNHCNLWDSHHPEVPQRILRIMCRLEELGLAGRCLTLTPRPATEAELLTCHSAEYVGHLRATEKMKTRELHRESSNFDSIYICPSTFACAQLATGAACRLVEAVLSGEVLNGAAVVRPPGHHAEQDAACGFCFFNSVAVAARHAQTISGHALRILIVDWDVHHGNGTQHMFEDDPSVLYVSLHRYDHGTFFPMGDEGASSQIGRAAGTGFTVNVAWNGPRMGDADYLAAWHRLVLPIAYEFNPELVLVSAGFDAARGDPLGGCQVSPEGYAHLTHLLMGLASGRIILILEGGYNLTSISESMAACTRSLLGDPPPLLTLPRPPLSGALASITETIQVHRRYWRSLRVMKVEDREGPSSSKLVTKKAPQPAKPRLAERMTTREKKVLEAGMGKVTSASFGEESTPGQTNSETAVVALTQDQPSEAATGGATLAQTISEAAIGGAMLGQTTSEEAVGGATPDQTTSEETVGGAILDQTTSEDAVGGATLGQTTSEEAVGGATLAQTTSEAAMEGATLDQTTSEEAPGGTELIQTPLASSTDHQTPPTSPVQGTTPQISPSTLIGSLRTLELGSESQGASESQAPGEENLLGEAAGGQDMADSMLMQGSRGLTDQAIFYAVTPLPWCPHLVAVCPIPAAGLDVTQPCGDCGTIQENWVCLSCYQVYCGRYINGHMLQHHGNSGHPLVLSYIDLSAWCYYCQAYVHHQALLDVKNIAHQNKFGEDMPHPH
UniProt O15379: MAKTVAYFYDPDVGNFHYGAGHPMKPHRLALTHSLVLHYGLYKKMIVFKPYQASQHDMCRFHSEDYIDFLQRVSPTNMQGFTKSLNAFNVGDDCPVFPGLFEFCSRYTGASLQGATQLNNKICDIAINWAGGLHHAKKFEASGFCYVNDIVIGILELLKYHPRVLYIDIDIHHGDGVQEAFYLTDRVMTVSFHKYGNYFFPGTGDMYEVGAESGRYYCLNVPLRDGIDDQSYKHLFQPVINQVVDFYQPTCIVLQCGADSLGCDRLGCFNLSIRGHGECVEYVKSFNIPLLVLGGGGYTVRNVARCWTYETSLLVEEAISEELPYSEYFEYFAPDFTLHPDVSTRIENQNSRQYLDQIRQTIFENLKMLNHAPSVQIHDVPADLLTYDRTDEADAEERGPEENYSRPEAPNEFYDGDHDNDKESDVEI

What was measured:
HL-60 cells [1] = test: Cell proliferation (MTS) assay, HL-60; format: cell-based, human
HDAC1 = HDAC1 (Homo sapiens, UniProt Q13547); test: Enzymatic HDAC fluorogenic assay, HDAC1; conditions: read-out: IC50 values, HDAC1; class I
[2] = test system: PARP, caspase 3, and caspase 8; test: Western blot, apoptotic biomarkers in HL-60 cells; format: cell-based, human; conditions: HL-60, 24 h, indicated concentrations
MCF-7/ADR cells = test: Cell proliferation (MTS) assay, MCF-7/ADR; format: cell-based; conditions: read-out: GI50, MCF-7/ADR, 72 h
U-937 cells = test: Cell proliferation (MTS) assay, U-937; format: cell-based, human
[3] = test system: Ac-α-tubulin and Ac-histone H3; test: Western blot, acetylation of α-tubulin and histone H3 in HL-60 cells; format: cell-based, human; conditions: HL-60, 24 h, indicated concentrations
Rad52 = test: Western blot, Rad52 in HL-60 cells; conditions: HL-60, 24 h, indicated concentrations
HL-60 cells [4] = test: Cell cycle distribution by flow cytometry; format: cell-based, human; conditions: for G2/M fraction: 24 h, HL-60
U266 cells = test: Cell proliferation (MTS) assay, U266; format: cell-based; conditions: read-out: GI50, U266, 72 h
MCF-7 cells = test: Cell proliferation (MTS) assay, MCF-7; format: cell-based, human
[5] = test system: primary human peripheral blood mononuclear cells (PBMCs); test: Cytotoxicity on normal PBMCs (MTS); conditions: 3 days, MTS assay
H1975 cells = test: Cell proliferation (MTS) assay, H1975; format: cell-based; conditions: read-out: GI50, H1975, 72 h
MDA-MB-231 cells = test: Cell proliferation (MTS) assay, MDA-MB-231; format: cell-based, human; conditions: read-out: GI50 values, MDA-MB-231, 3 days (72 h), listed as Chloram-HDi (3)
HDAC6 = HDAC6 (Homo sapiens, UniProt Q9UBN7); test: Enzymatic HDAC fluorogenic assay, HDAC6; conditions: read-out: IC50 values, HDAC6; class IIb
γ-H2AX = test: Western blot, γ-H2AX in HL-60 cells; conditions: HL-60, 24 h, indicated concentrations
HL-60 cells [6] = test: Comet assay (DNA damage); format: cell-based, human; conditions: 10 µM, 24 h
HDAC3 = HDAC3 (Homo sapiens, UniProt O15379); test: Enzymatic HDAC fluorogenic assay, HDAC3; conditions: read-out: IC50 values, HDAC3; class I
A2780 cells = test: Cell proliferation (MTS) assay, A2780; format: cell-based, human; conditions: read-out: GI50 values, A2780, 3 days (72 h)
A549 cells = test: Cell proliferation (MTS) assay, A549; format: cell-based; conditions: read-out: GI50, A549, 72 h

Compound `O=C(CCCc1ccc(N(CCCl)CCCl)cc1)NO` has a GI50 (HL-60 cells [1]; read-out: GI50 values, HL-60, 3 days (72 h), MTS assay) of 1.24 µM, an IC50 (HL-60 cells [1]; read-out: IC50, HL-60) of 1.24 µM and an IC50 (HDAC1) of 4.5 µM. The “cleavage of PARP, caspase 3, and caspase 8” value [2] was “significantly promoted the cleavage of PARP, caspase 3, and caspase 8 in a dose-dependent manner”, the GI50 (MCF-7/ADR cells) was 62.1 µM and the GI50 (U-937 cells; read-out: GI50 values, U-937, 3 days (72 h), MTS assay) was 1.75 µM. The IC50 (U-937 cells; read-out: IC50, U937) was 1.75 µM, the “acetylation of α-tubulin and histone H3” value [3] was “dose-dependently increased the acetylation of α-tubulin and histone H3” and the “expression level of α-tubulin” value [3] was “decreased the expression level of α-tubulin in a dose-dependent manner”. The “protein level of Rad52” value (Rad52) was “downregulated the protein level of Rad52 in a dose-dependent manner”, the G2/M fraction (HL-60 cells [4]; 0.1 µM, DMSO control 21.8%) was 30.8% and the G2/M fraction (HL-60 cells [4]; 0.5 µM) was 52%. The G2/M fraction (HL-60 cells [4]; 1 µM) was 62.4%, the “cell population at sub G0/G1 phases” value (HL-60 cells [4]; HL-60, 24 h) was “increased the cell population at sub G0/G1 phases in a dose-dependent manner” and the “cell population at the G0/G1 phases” value (HL-60 cells [4]; HL-60, 24 h) was “reduction of the cell population at the G0/G1 phases in a dose-dependent manner”. It also gave a GI50 (U266 cells) of 38.1 µM, a GI50 (MCF-7 cells; read-out: GI50 values, MCF-7, 3 days, listed as Chloram-HDi (3)) of 245 µM and a GI50 (MCF-7 cells; read-out: GI50 values, MCF-7, 3 days, listed as chloram-HDi) of 245 µM. The “toxicity to normal human PBMCs” value ([5]; 0.01-10 µM) was “not toxic to normal human PBMCs up to 10 µM concentration”, the IC50 ([5]; read-out: IC50, normal PBMCs) was greater than 10 µM and the GI50 (H1975 cells) was 76.7 µM. The GI50 (MDA-MB-231 cells) was 95.9 µM, the IC50 (HDAC6) was 0.694 µM and the “expression of γ-H2AX” value (γ-H2AX) was “more significantly increased the expression of γ-H2AX than chlorambucil in a dose-dependent manner”. The “% DNA content in the tail” value (HL-60 cells [6]) was 25.5%, the IC50 (HDAC3) was 6.2 µM and the GI50 (A2780 cells) was 21.2 µM. It also gave a GI50 (A549 cells) of 65.3 µM.
